The text below walks through data of US6362166B1, “Antipicornaviral compounds and methods for their use and preparation” (Agouron Pharmaceuticals, Inc., priority 1996, dated 2002).

The subject of this data set is HRV-14. The data set can be described thus: Antirhinoviral HI-HeLa Cell Culture Assay (Cell Protection Assay, XTT dye reduction). Format: cell-based, human rhinovirus (HRV) serotype-14. Conditions: therapeutic index = CC50 divided by EC50; HRV-14, HI-HeLa. As for the experimental part: In the Cell Protection Assay, the ability of compounds to protect cells against HRV infection was measured by the XTT dye reduction method. This method is described in Weislow, O. S., R. Kiser, D. L. Fine, J. Bader, R. H. Shoemaker, and M. R. Boyd, J. Natl. Cancer Inst. 1989, 81, 577-586, which is incorporated herein by reference.
HI-HeLa cells were infected with HRV-14 at a multiplicity of infection (m.o.i.) of 0.13 (virus particles/cell) or mock-infected with medium only. Infected or mock-infected cells were resuspended at 8×10^5 cells per mL and incubated with appropriate concentration of compounds of formulas I and II. Two days later, XTT/PMS was added to test plates and the amount of formazan produced was quantified spectrophotometrically at 450/650 nm. […] The therapeutic index (TI) was calculated by dividing the CC50 by the EC50.
All strains of human rhinovirus (HRV) for use in this assay were purchased from American Type Culture Collection (ATCC), except for HRV serotype-14, which was produced from the infectious cDNA clone, constructed and supplied to us by Dr. Roland Rueckert at the Institue for Molecular Virology, University of Wisconsin, Madison, Wisc. HRV stocks were propagated, and antiviral assays were perforemd in HI-HeLa cells (ATCC). Cells were grwon in Minimal Essential Medium, available from Life Technologies, with 10% fetal bovine serum.
The compounds were tested against control compounds WIN 51711, WIN 52084, and WIN 54954, all obtained from Sterling-Winthrop Pharmaceuticals, and control compound Pirodavir, obtained from Janssen Pharmaceuticals.
`CCOC(=O)/C=C/[C@H](CCC(N)=O)NC(=O)[C@H](C)NC(=O)[C@H](CC(C)C)NC(=O)OCc1ccccc1` [Compound 109] yielded a TI greater than 16. `CCOC(=O)/C=C/[C@H](CCC(N)=O)NC(=O)[C@H](Cc1ccccc1)NC(=O)[C@H](CC(C)C)NC(=O)SC1CCCC1` [Compound 182] returned a TI greater than 556. In turn, `CCOC(=O)/C=C/[C@H](CCC(N)=O)NC(=O)[C@H](Cc1ccccc1)NC(=O)[C@H](CCC(=O)O)NC(=O)OCc1ccccc1` [Compound 154] yielded a TI greater than 58. `CC(=O)N1CC/C(=C\[C@H](CCC(N)=O)NC(=O)[C@H](Cc2ccc(F)cc2)NC(=O)[C@H](CSc2ccccc2)NC(=O)SC2CCCC2)C1=O` [Compound 181]: the TI was greater than 1000. Turning to `CC(C)C[C@H](NC(=O)OCc1ccccc1)C(=O)N[C@@H](Cc1ccccc1)C(=O)N[C@H](/C=C/C(=O)N1CCc2cccc(Cl)c21)CCC(N)=O` [Compound 91], the TI is greater than 6. As for `CCOC(=O)/C=C/[C@H](CCC(N)=O)NC(=O)[C@H](Cc1ccccc1)NC(=O)CNC(=O)OCc1ccccc1` [Compound 102], the figure is greater than 57; as for `COc1ccc(C(=O)/C=C/[C@H](CCC(N)=O)NC(=O)[C@H](Cc2ccccc2)NC(=O)[C@H](CC(C)C)NC(=O)OCc2ccccc2)cc1` [Compound 42], greater than 4; as for `CC(C)C[C@H](NC(=O)OCc1ccccc1)C(=O)N[C@@H](Cc1ccccc1)C(=O)N[C@H](/C=C/C(=O)N1CCc2ccccc21)CCC(N)=O` [Compound 85], greater than 20. “Ethyl-3-[CBZ-L-Leu-L-Phe-L-[N-(2-pyrrolidinone)]-Ala]-E-Propenoate [Compound 5]” registered a TI of 157. In the case of `CCOC(=O)/C=C/[C@H](CCC(N)=O)NC(=O)[C@H](Cc1ccc(F)cc1)NC(=O)[C@@H](NC(=O)SC1CCCC1)C(C)(C)Sc1ccc([N+](=O)[O-])cc1` [Compound 185], the TI is greater than 200.

`CCOC(=O)/C=C/[C@H](CNC(N)=O)NC(=O)[C@H](Cc1ccccc1)NC(=O)[C@H](CC(C)C)NC(=O)OCc1ccccc1` [Compound 16, Ethyl-3-[CBZ-L-Leu-L-Phe-L-(N-carbamyl-amino)-Ala]-E-Propenoate] showed a TI greater than 3. `CCOC(=O)C=CC(CCC(N)=O)NC(=O)C(Cc1ccc(C)cc1)NC(=O)C(CC(C)C)NC(=O)OCc1ccccc1` (stereo not shown) [Compound 155] came in with a TI greater than 1778. In turn, `CCOC(=O)/C=C/[C@H](CCC(N)=O)NC(=O)[C@H](Cc1ccccc1)NC(=O)[C@H](CC(C)C)NC(=O)c1ccc(Oc2ccccc2)cc1` [Compound 104] yielded a TI greater than 61. For the compound `CCOC(=O)/C(F)=C\[C@H](CCC(N)=O)NC(=O)[C@H](Cc1ccccc1)NC(=O)[C@H](CC(C)C)NC(=O)OCc1ccccc1` [Compound 8, Ethyl-2-Fluoro-3-(CBZ-L-Leu-L-Phe-L-Gln)-E-Propenoate], the TI is given as greater than 5. Regarding `CCOC(=O)/C=C/[C@H](CCC(N)=O)NC(=O)[C@H](Cc1ccccc1)NC(=O)[C@H](CC(C)C)NC(=O)OCc1ccncc1` [Compound 36], the TI was greater than 57. Compound `CCOC(=O)/C=C/[C@H](CCC(N)=O)NC(=O)[C@H](Cc1ccccc1)NC(=O)[C@H](CC(C)C)NC(=O)C1CCCC1` [Compound 116] gave a TI greater than 533. Consider `CCOC(=O)/C=C/[C@H](CCC(N)=O)NC(=O)[C@H](Cc1ccc(F)cc1)NC(=O)[C@@H](NC(=O)SC1CCCC1)C(C)C` [Compound 184], for which the TI is recorded as greater than 526. As to `CCOC(=O)/C=C/[C@H](CCC(N)=O)NC(=O)[C@H](Cc1ccc(C)cc1)NC(=O)[C@@H](NC(=O)SC1CCCC1)C(C)(C)C` [Compound 174, Ethyl-3-[Cyclopentylthiocarbonyl-L-α-(t-Butyl-Gly)-L-(4-Me-Phe)-L-Gln]-E-Propenoate], the TI is listed as greater than 1786.

`CCOC(=O)/C=C/[C@H](CCC(N)=O)NC(=O)[C@H](Cc1ccccc1)NC(=O)[C@H](CSc1ccccc1)NC(=O)SC1CCCC1` [Compound 173, Ethyl-3-[Cyclopentylthiocarbonyl-L-(S-Ph-Cys)-L-Phe-L-Gln]-E-Propenoate] registered a TI greater than 1250. Take `CCOC(=O)/C=C/[C@H](CCC(N)=O)NC(=O)[C@H](Cc1ccccc1)NC(=O)[C@@H](NC(=O)SC1CCCC1)C(C)(C)SC` [Compound 178, Ethyl-3-[Cyclopentylthiocarbonyl-L-(S-Me-Pen)-L-Phe-L-Gln]-E-Propenoate]: the TI is listed as greater than 1000. For the compound `CCOC(=O)/C=C/[C@H](CCC(N)=O)NC(=O)[C@H](Cc1cccc(F)c1)NC(=O)c1cc2c(OC)cccc2[nH]1` [Compound 28, Ethyl-3-[N-(4-Methoxyindole-2-Carbonyl)-L-(3-F-Phe)-L-Gln]-E-Propenoate], the TI worked out at 14.

`CSc1cccc2c1N(C(=O)/C=C/[C@H](CCC(N)=O)NC(=O)[C@H](Cc1ccccc1)NC(=O)[C@H](CC(C)C)NC(=O)OCc1ccccc1)CC2` [Compound 96] yielded a TI of 5.

The compound `CC(C)C[C@H](NC(=O)OCc1ccccc1)C(=O)N[C@@H](Cc1ccccc1)C(=O)N[C@H](/C=C/C(=O)n1cccc1)CCC(N)=O` [Compound 66] displayed a TI of 5. Compound `CCOC(=O)/C=C/[C@H](CCC(N)=O)NC(=O)[C@H](Cc1ccccc1)NC(=O)[C@H](C)NC(=O)OCc1ccccc1` [Compound 101] registered a TI greater than 160. For the compound `CCOC(=O)C=CC(CCC(N)=O)NC(=O)C(Cc1ccccc1)NC(=O)C(NC(=O)SC1CCCC1)C(C)(C)[S+](C)[O-]` (mixture of isomers) [Compound 179, Ethyl-3-(Cyclopentylthiocarbonyl-L-[S(O)-Me-Pen]-L-Phe-L-Gln)-E-Propenoate], the TI is greater than 56. Then `CC(C)C[C@H](NC(=O)OCc1ccccc1)C(=O)N[C@@H](Cc1ccccc1)C(=O)N[C@H](/C=C/CCl)CCC(N)=O` [Compound 74], with 25.

`CCOC(=O)/C=C/[C@H](CCC(N)=O)NC(=O)[C@@H](NC(=O)[C@H](CC(C)C)NC(=O)OCc1ccccc1)C(C)O` (stereo partly shown) [Compound 134] gave a TI greater than 5. As for `CCOC(=O)C=CC(CCC(N)=O)NC(=O)C(Cc1ccccc1)NC(=O)C(NC(=O)OCc1ccccc1)C(C)CC` (stereo not shown) [Compound 172], the TI is recorded as greater than 126. Then `C/C(=C\[C@H](CCC(N)=O)NC(=O)[C@H](Cc1ccccc1)NC(=O)[C@H](CC(C)C)NC(=O)OCc1ccccc1)C(=O)O` [Compound 144], with greater than 3; and `CCOC(=O)/C=C/[C@H](CCC(N)=O)NC(=O)[C@H](Cc1ccccc1)NC(=O)[C@@H](NC(=O)OCc1ccccc1)C(C)C` [Compound 146], with greater than 842; and `CC(C)C[C@H](NC(=O)OCc1ccccc1)C(=O)N[C@@H](Cc1ccccc1)C(=O)N[C@H](/C=C/C(=O)N1CCCC1=O)CCC(N)=O` [Compound 61], with 63. `CC(C)C[C@H](NC(=O)OCc1ccccc1)C(=O)N[C@@H](Cc1ccccc1)C(=O)N[C@H](/C=C/C(=O)c1ccc(C#N)cc1)CCC(N)=O` [Compound 80] gave a TI greater than 6. As for `CC(C)C[C@H](NC(=O)OCc1ccccc1)C(=O)N[C@@H](Cc1ccccc1)C(=O)N[C@H](/C=C/C(=O)N1CCc2cc(Cl)ccc21)CCC(N)=O` [Compound 92], the figure is 10; as for `CC(C)C[C@H](NC(=O)OCc1ccccc1)C(=O)N[C@@H](Cc1ccccc1)C(=O)N[C@H](/C=C/C(=O)c1ccc2c(c1)OCO2)CCC(N)=O` [Compound 46], 14.
